Compound potency records, mixed from different reports. Data source: NIAID ChemDB in PubChem.

Common to all: whole-cell or culture tests; species: Rhinovirus; method: cytopathic effect; endpoint: EC50

Rows are shuffled and stem from different studies.

compound,strain or isolate,cell line,value
CSc1nsc(-c2ccc(OCCCCOc3ccc(C#N)cc3)cc2)c1C#N,Serotype 42 (group A),HELA-OHIO,>2 µM
CS(=O)(=O)c1ccc(Cc2ccccc2)nc1,TYPE 2,HeLa,>10 µg/mL
CCOC(=O)c1ccc(OCCC2CCN(c3ccc(C)nn3)CC2)cc1,Serotype 3,HeLa,<0.1 µg/mL
CS(=O)(=O)c1ccc(NCc2ccc(Cl)cc2)nc1,TYPE 1A,HeLa,3.1 µg/mL
CC(C)S(=O)(=O)c1ccc(Oc2ccc(C(=O)c3ccccc3)cc2)nc1,TYPE 2,HeLa,>5 µg/mL
CSc1nsc(-c2ccc(OCCCOc3ccc(C#N)cc3)cc2)c1C#N,Serotype 39 (group B),HELA-OHIO,>2 µM
COCc1cc(CCCOc2c(Cl)cc(-c3noc(C)n3)cc2Cl)on1,Serotype 41,HeLa,0.154 µg/mL
CSc1nsc(-c2ccc(OC(C)(C)C)cc2)c1C#N,Serotype 86 (group A),HELA-OHIO,7 µM
CCOC(=O)c1ccc(OCCCOc2ccc(-c3snc(SC)c3C#N)cc2)cc1,Serotype 29 (group B),HELA-OHIO,>2 µM
CS(=O)(=O)c1ccc(Cc2ccc(Cl)c(Cl)c2)nc1,TYPE 1A,HeLa,<0.3 µg/mL
CS(=O)(=O)c1ccc(Oc2ccc(C(=O)c3ccccc3)cc2)nc1,TYPE 39,HeLa,>10 µg/mL
CS(=O)(=O)c1ccc(Cc2ccc(N)cc2)nc1,TYPE 2,HeLa,>10 µg/mL
CN(C)c1cc(-c2ccc(O)cc2O)on1,Serotype 2,HeLa,>227 µM
Cc1c(-c2ccccc2)n(-c2ccc(F)cc2)c2ccc(C(C)C)cc2c1=O,33/1200,HELA-OHIO,0.3 µg/mL
CCOc1cc(OC)ccc1-c1cc(N(CC)CC)no1,Serotype 14,HeLa,>90 µM
CCc1nc(-c2cc(C)c(OCCCc3cc(COC)no3)c(C)c2)no1,Serotype 41,HeLa,0.173 µg/mL
Cc1c(-c2ccccc2)n(-c2cccc(F)c2)c2ccc(C(C)C)cc2c1=O,21/47,HELA-OHIO,0.048 µg/mL
CSc1nsc(-c2ccc(OCCCc3ccccc3)cc2)c1C#N,Serotype 9 (group B),HELA-OHIO,5 µM
CCN(CC)c1cc(-c2ccc(OC)cc2OC)on1,Serotype 86 (group A),HeLa,>362 µM
CSc1nsc(-c2ccc(OCCCOc3ccc([N+](=O)[O-])cc3)cc2)c1C#N,Serotype 86 (group A),HELA-OHIO,0.4 µM
COc1ccc(-n2c(-c3ccccc3)c(C)c(=O)c3cc(C(C)C)ccc32)cc1,TYPE 1B/B632,HELA-OHIO,>2.5 µg/mL
C#CCOc1cc(OC)ccc1-c1cc(N(CC)CC)no1,Serotype 70 (group A),HeLa,>40 µM
CS(=O)(=O)c1cccc(Oc2ccc(C(=O)c3ccccc3)cc2)n1,TYPE 64,HeLa,>10 µg/mL
CCn1c2c(c(=O)c3cc(C(C)C)ccc31)Cc1ccccc1-2,8/MRH,HELA-OHIO,0.46 µg/mL
CSc1nsc(-c2ccc(OCc3ccccc3)cc2)c1C#N,Serotype 29 (group B),HELA-OHIO,20 µM
CSc1nsc(-c2ccc(OCc3ccccc3)cc2)c1C#N,Serotype 51 (group B),HELA-OHIO,19 µM
CSc1nsc(-c2ccc(O)cc2)c1C#N,Serotype 45 (group A),HELA-OHIO,>10 µM
CC(C)S(=O)(=O)c1ccc(Cc2ccc(Cl)c(Cl)c2)nc1,TYPE 64,HeLa,0.6 µg/mL
Cc1nc(-c2cc(C)c(OCCCc3cc(C(F)(F)F)no3)c(C)c2)no1,Serotype 2,HeLa,0.04 µg/mL
CS(=O)(=O)c1ccc(NCc2ccc(Cl)c(Cl)c2)nc1,TYPE 21,HeLa,5 µg/mL
COc1ccc(-c2cc(N3CCCC3)no2)c(O)c1,Serotype 29 (group B),HeLa,>384 µM

ECn is the concentration giving n% inhibition of infection, replication or growth.